Results of single-concentration screens

From ChEMBL document CHEMBL3988442, “University of Dundee, Small-Polar-MMV Screening Library” (2021).

The filed quantity is “Percent Effect” (%). The controls that fix the scale are not given in the record; negative values are as filed. Many other results are left out here, so strong results are more common than in the screen. Two or more numbers in one place are separate tests of the same structure; such repeats can differ widely.

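Whole-cell growth test on Mycobacterium tuberculosis, read after 4 days in a medium based on cholesterol and the lipid DPPC; the read-out is not stated. Compounds at 50 µM. Higher reads as more growth inhibition (inferred: compounds with an IC50 in retests scored well above the rest). Size under these conditions: about 69,000 compounds, about 370 of them at 50% or above in at least one test.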

CC(=O)N1CCCC2(C1)CN(C(=O)c1ccncc1)CCO2 (stereo not given) read -7.472% & 7.465%.
CCN1CC2(CC1=O)CN(Cc1cnn(C)c1)CCN(C(=O)C(C)C)C2.O=C(O)C(F)(F)F (stereo not given) read 10.22% & 70.11%.
Cc1ccc(NC2CCCN(CCCc3ccccc3)C2)nn1 (stereo not given) read -21.92% & -4.598%.
O=C1C(n2nnc(-c3cccs3)n2)CCN1CC(F)(F)F (stereo not given) read 13.76%.
Cc1cccc(C(=O)NCc2ccnc(N(C)C)c2)n1 read -1.477%.
Cc1nn(C)c(C)c1CCC(=O)N1CC(c2cccnc2)C1 read -27.43%.
O=C(Cn1c(=O)oc2ccccc21)NCC1(O)CCc2ccccc21 (stereo not given) read -0.3507%.
COC(=O)COc1cc(NCc2c(C)noc2C)c(Cl)cc1C read 111.6%.
COc1cccc(CN2CCc3nc4ccsc4c(=O)n3CC2)c1.Cl read -15.37%.
CC(C)c1csc(C(=O)N(C)c2ccc(Br)cn2)n1 read 73.39%.
CN(Cc1cccc(OC(F)(F)F)c1)C(=O)c1cnsn1 read 50.44%.
CCc1ccc(C(=O)N2CCN(Cc3ccc(F)cc3)CC2)s1 read 62.57%.
Cc1ccc(Br)cc1C(=O)Nc1cc(C(N)=O)n(C)c1 read 5.637%.
CC(c1nc(C2CC2)no1)N1CCN(CCN2CCCC2=O)CC1 (stereo not given) read -6.064%.
CC(NC(=O)C1=NN(C)C(=O)CC1)c1ccc(Cl)cc1 (stereo not given) read 5.8%.
CC(=O)N1CCCC1c1nnc2n1CCCCC2 (stereo not given) read 51.62% & 0.6994%.
CCCNC(=O)Cn1cc(-c2ccccc2)cn1 read -12.1%.
CCO[C@@H]1CO[C@@]2(CCN(Cc3ccc4c(c3)OCO4)C2)C1.O=C(O)C(F)(F)F read 12.96%.
COC(=O)CSCc1noc(-c2ccc(C)cc2)n1 read 22.19%.
COc1cccc(S(=O)(=O)NC(=O)C2CC(c3ccccc3)=NO2)c1 (stereo not given) read 2.38%.
Cc1ccc(CSc2nc(N)cc(NCCC(=O)N3CCCC3)n2)cc1 read 7.066%.
Fc1ccc(CNCCn2cccn2)c(Cl)c1 read 2.696%.
O=C(Nc1cccnn1)NC(CCCO)c1ccccc1 (stereo not given) read 11.42%.
O=C(N[C@@H]1CCNC[C@H]1O)c1ccc(F)c(Cl)c1 read 22.14%.
CN1CCCC(c2cncc(-c3cccc(C(F)(F)F)c3)n2)C1 (stereo not given) read 35.89%.
COc1c(C)cnc(CSc2nnc(C)s2)c1C read 24.89%.
c1ccc(Cc2n[nH]c(C3CCOC3)n2)cc1 (stereo not given) read 2.363%.
N#Cc1c[nH]nc1NCc1ccc2c(c1)OCO2 read 11.47%.
CN1CCN(C(=O)Cc2ccc(S(=O)(=O)C(F)F)cc2)CC1 read 11.49%.
CCC(CO)Nc1nc(C(F)F)nc2ccccc12 (stereo not given) read -2.217%.
CN(CCCc1cnn(C)c1)C(=O)Nc1cccc2[nH]nnc12 read -17.44%.
COc1ccc(C[C@H]2CN(C(=O)C3CC3)CC[C@H]2OC)cc1 read 4.934%.
CCOC(=O)c1cc(C(C)(O)CCC=C(C)C)on1 (stereo not given) read 115.2%.
O=C(Nc1nc[nH]n1)c1cc(-c2ccc(F)cc2)n[nH]1 read -3.316%.
O=C(O)C(F)(F)F.[H][C@]12C[C@@H](CN(C)C)N(C(C)=O)[C@@]1([H])CCN(C(=O)c1cccn1C)C2 read -17.52%.
CCC(C)(C)NC(=O)c1nnn(-c2cccc3c2CCN(C)C3)c1C read 0.7076% & 5.085%.
O=S(=O)(NCCNc1ccc(-n2cccc2)nn1)c1ccccc1 read 84.59%.
Cc1cnn(-c2cccc(N3CCN(c4cc(C)nc(C)n4)CC3)n2)c1 read 53.22%.
COCCN(Cc1ccccc1)C(=O)c1csc(-c2nnc[nH]2)n1 read 2.454% & -2.636%.